Compound potency records, mixed from different reports. Data source: NIAID ChemDB in PubChem.

Common to all: tests in culture; species: Mycobacterium tuberculosis

Inhibition is in % at the dose shown (toxicity tests: loss of growth or viability). MIC bound: limit read from a one-dose screen. ECn: concentration that inhibits the pathogen or its effect by n%. Lines come from different laboratories, so protocols vary. An empty or dashed field is not shown. Zones are inhibition diameters on agar. A number after MIC or MFC names an inhibition level or a share of isolates.

structure,strain,cells,method,tested at,read-out,mutations,value
CCCCn1c(-c2ccc([N+](=O)[O-])cc2)cs/c1=N\N=C1/C(=O)Nc2ccc(Br)cc21,H37Rv,-,-,-,EC50,-,<12 µg/mL
O=C(NN1CCN(c2cc3c(cc2F)c(=O)c(C(=O)O)cn3C2CC2)CC1)c1ccc(F)cc1,H37Rv,-,fluorescence,-,MIC90,-,>50 µM
CCCCCCc1ccc(Oc2ccccc2)c(O)c1,H37Rv pMH29:inhA,-,-,-,MIC99,-,18.8 µg/mL
O=C(O)c1cn(-c2ccc([N+](=O)[O-])cc2F)c2cc(N3CCNCC3)c(F)cc2c1=O,H37Rv,-,BACTEC,6.25 µg/mL,inhibition,-,37%
CCOC(=O)Nc1ccc(N)c(N)n1,H37Rv,-,-,-,EC50,-,>12.5 µg/mL
CCC1=CC2CN3CCc4c([nH]c5ccccc45)C(C(=O)OC)(C2)C13,H37Rv,-,BACTEC,-,MIC bound,-,>12.5 µg/mL
O=C(Nc1ccc(Cl)c([N+](=O)[O-])c1)N1CCN(S(=O)(=O)c2cccc3cnccc23)CC1,SRMV2.6,-,resazurin,-,MIC90,Inosine monophosphate dehydrogenase-resistant,>100 µM
CCOC(=O)Nc1cc(NC(C)C(=O)c2ccccc2)c([N+](=O)[O-])cn1,H37Rv,-,-,-,EC50,-,>12.5 µg/mL
Cc1nn(-c2ccccc2)c2c1C(c1cn(-c3ccccc3)nc1-c1ccc(F)cc1)C1=C(NC(C)(c3cc(O)c(Cl)c(O)c3)NC1=O)O2,MTCC 300,-,agar diffusion / agar,1 mg/mL,zone,-,2 mm
NNC(=O)c1ccncc1,NHN382,-,-,-,MIC99,-,1.6 µg/mL
COc1ccc(-n2c(-c3ccc(C)cc3)cc(CN3CCOCC3)c2C)cc1,H37Rv,-,-,-,MIC90,-,141 µM
N/C(=N\N=C\c1ccc(Cl)c([N+](=O)[O-])c1)c1ccncc1,1342,-,-,-,MIC,-,>256 µg/mL
O=C(NC1CCN(S(=O)(=O)c2cccc3cnccc23)CC1)C1CCCCC1,H37Rv,-,resazurin,-,MIC90,-,>100 µM
O=[n+]1c2ccccc2n([O-])c2ccccc21.[Cl][Cu][Cl],RMP-R,-,-,-,MIC,-,3.1 µg/mL
C[C@H]1COc2c(N3CCN(C)CC3)c(F)cc3c(=O)c(C(=O)O)cn1c23,102 strains,-,-,-,MIC,-,8 µg/mL
Cc1ccc(-c2cc(CN3CCOCC3)c(C)n2-c2ccc(F)cc2)cc1,H37Rv DR6,-,-,-,MIC,V681I M492T V564A,5.4 µM
CN1CCN(c2cc3c(cc2F)c(=O)c(C(=O)O)cn3-c2ccc(N)cc2F)CC1,H37Rv,-,BACTEC,6.25 µg/mL,inhibition,-,100%
N/C(=N\N=C\c1ccc(Cl)c(Cl)c1)c1ccncc1,H37Rv,-,-,-,MIC,-,256 µg/mL
CC(=O)Nc1oc(-c2ccccc2)c(-c2ccccc2)c1C#N,H37Rv,-,resazurin,50 µg/mL,inhibition,-,27%
N/C(=N\N=C\c1cccc(F)c1)c1ccncc1,H37Rv,-,-,-,MIC,-,128 µg/mL
CCC(C)c1ccc(NC(=O)c2cc(Cl)ccc2N)cc1,My 331/88,-,-,-,MIC,-,31 µM
CCn1cc(C(=O)O)c(=O)c2cc(F)c(N3CCN(CC(=O)c4ccccc4)CC3)c(F)c21,H37Rv,VERO,BACTEC,6.25 µg/mL,inhibition,-,100%
Cc1cccc(CC(=O)N2CCN(S(=O)(=O)c3cccc4cnccc34)CC2)c1,SRMV2.6,-,resazurin,-,MIC90,Inosine monophosphate dehydrogenase-resistant,>250 µM
COc1cc([C@H]2OC[C@H]3[C@@H]2CO[C@@H]3c2cc(OC)c3c(c2)OCO3)cc(OC)c1OC,H37Rv,-,BACTEC,-,MIC bound,-,>12.5 µg/mL
CCn1c(SCC(=O)N/N=C/C=C/c2ccc([N+](=O)[O-])o2)nnc1-c1ccco1,H37Rv,-,-,6.25 µg/mL,inhibition,-,61%
CO[C@H]1/C=C/O[C@@]2(C)Oc3c(C)c(O)c4c(=O)c(c5oc6cc(N7CCN(CC(C)C)CC7)cc(=O)c6nc5c4c3=C2O)NC(=O)/C(C)=C\C=C\[C@H](C)[C@H](O)[C@@H](C)[C@@H](O)[C@@H](C)[C@H](OC(C)=O)[C@@H]1C,31 (rifampicin-resistant),-,-,-,MIC,-,4 µg/mL
O=C(O)c1cn(C2CC2)c2cc(N3CCN(/N=C/c4ccccc4F)CC3)c(F)cc2c1=O,H37Rv,-,fluorescence,-,MIC90,-,1.02 µM
N#Cc1c(NC(=O)c2ccc(Cl)cc2)oc(-c2ccccc2)c1-c1ccccc1,H37Rv,-,resazurin,50 µg/mL,inhibition,-,19%
CCn1c(SCC(=O)N/N=C/c2cccc([N+](=O)[O-])c2)nnc1-c1ccco1,H37Rv,-,-,-,MIC,-,>6.25 µg/mL
[N-]=[N+]=[N-].[Na+],H37Rv,-,-,-,MIC,-,40.63 µg/mL
Cc1cc(O)c2c(c1)C(=O)c1c(oc3c1c(=O)oc1cccc(C)c13)C2=O,MTCS1,-,-,-,MIC,-,4.88 µg/mL
O=C(O)c1cn(C2CC2)c2cc(N3CCN(Nc4ccc(F)cc4)CC3)c(F)cc2c1=O,H37Rv,-,fluorescence,-,MIC90,-,5.41 µM
N[C@H](C(=O)O)[C@H]1ON=C(Cl)[C@@H]1O,TAC-R,-,-,-,MIC,-,12.5 µg/mL
Cc1ccc(-n2nnc3ccccc3c2=O)cc1,My 331/88,-,-,-,MIC,-,>125 µM
CCOC(=O)Nc1cc2c(c(N)n1)N=C(c1ccccc1OC)CO2,H37Rv,-,-,-,EC50,-,>12.5 µg/mL
NNC(=O)c1ccncc1,H37Rv,-,-,-,MIC,-,0.107 µg/mL
COc1cccc(/C=N/N=C(\N)c2ccncc2)c1OC,H37Rv,-,-,-,MIC,-,256 µg/mL
CC1CCCCC1C(=O)N1CCN(S(=O)(=O)c2cccc3cnccc23)CC1,SRMV2.6,-,resazurin,-,MIC90,Inosine monophosphate dehydrogenase-resistant,>250 µM
O=C1N(C2CCCCC2)CC2C(c3cccnc3)NNC12O,H37Rv,-,BACTEC,-,MIC bound,-,>12.8 µg/mL
CCOC(=O)CSc1nnc(-c2ccco2)n1CC,H37Rv,-,-,-,MIC,-,>6.25 µg/mL
N/C(=N\N=C\c1ccccc1)c1ccncc1,1054,-,-,-,MIC,-,32 µg/mL
Nc1ccc(-n2cc(C(=O)O)c(=O)c3cc(F)c(N4CCNCC4)cc32)c(F)c1,H37Rv,VERO,BACTEC,-,MIC,-,1.56 µg/mL
C=C1C(=O)OC2CC(C)C3(O)CCC(=O)C3(C)CC12,H37Rv,-,BACTEC,-,MIC,-,≥12.5 µg/mL
CCn1c(SCC(=O)N/N=C/c2ccc(OC)cc2)nnc1-c1ccco1,H37Rv,-,-,-,MIC,-,>6.25 µg/mL
Nc1ccc(C2SCC(=O)N2NS(=O)(=O)c2cccc(C(=O)O)c2)cc1,H37Rv,-,BACTEC,-,MIC bound,-,>12.5 µg/mL
CO[C@H]1/C=C/O[C@@]2(C)Oc3c(C)c(O)c4c(O)c(c(/C=N/N5CCN(C)CC5)c(O)c4c3C2=O)NC(=O)/C(C)=C\C=C\[C@H](C)[C@H](O)[C@@H](C)[C@@H](O)[C@@H](C)[C@H](OC(C)=O)[C@@H]1C,TN1811,-,-,-,MIC,-,>32 µg/mL
N#Cc1cccc(CC(=O)N2CCN(S(=O)(=O)c3cccc4cnccc34)CC2)c1,SRMV2.6,-,resazurin,-,MIC90,Inosine monophosphate dehydrogenase-resistant,>250 µM
Nc1ccc(Cl)cc1C(=O)Nc1ccc(Cl)cc1,My 331/88,-,-,-,MIC,-,31 µM
O=C(O)c1cn(C2CC2)c2cc(N3CCN(/N=C/c4ccc(C(F)(F)F)cc4)CC3)c(F)cc2c1=O,H37Rv,-,fluorescence,-,MIC90,-,28.28 µM
COc1ccc(C(=O)CN2CCN(c3cc4c(cc3F)c(=O)c(C(=O)O)cn4-c3ccc(N)cc3F)CC2)cc1,H37Rv,-,BACTEC,6.25 µg/mL,inhibition,-,31%
CC(=O)c1cc2c(cc1C(C)C)CC[C@H]1[C@](C)(C#N)CCC[C@]21C,H37Rv,-,BACTEC,12.5 µg/mL,inhibition,-,75%
CCCCn1c(-c2ccc(OC)cc2)cs/c1=N\N=C1/C(=O)Nc2ccccc21,H37Rv,-,-,-,EC50,-,12 µg/mL
N/C(=N\N=C\c1cccc(Br)c1)c1ccncc1,1481,-,-,-,MIC,-,64 µg/mL
Nc1ccccc1C(=O)Nc1cccc(Cl)c1,My 331/88,-,-,-,MIC,-,>500 µM
COc1ccc(-c2c(N)cnc(C(=O)O)c2C)c(OCc2ccccc2)c1OC,H37Rv,-,BACTEC,-,MIC bound,-,>12.5 µg/mL
Cc1nn(-c2ccccc2)c2c1C(c1cn(-c3ccccc3)nc1-c1ccc(Cl)cc1)C1=C(NC(C)(c3cc(O)c(Cl)c(O)c3)NC1=O)O2,MTCC 300,-,agar diffusion / agar,1 mg/mL,zone,-,1.5 mm
CCNC(=S)N=Nc1c(O)[nH]c2ccccc12,H37Rv,-,-,-,MIC,-,>12.5 µg/mL
O=C(C1CCCCC1)N1CCN(S(=O)(=O)c2ccc3ccccc3c2)CC1,SRMV2.6,-,resazurin,-,MIC90,Inosine monophosphate dehydrogenase-resistant,>100 µM
CCN1N=Nc2ccccc2NC1=O,H37Rv,-,BACTEC,-,MIC bound,-,>12.5 µg/mL
NC(=O)c1cn(-c2ccc([N+](=O)[O-])cc2F)c2cc(N3CCNCC3)c(F)cc2c1=O,H37Rv,-,BACTEC,6.25 µg/mL,inhibition,-,0%
O=C(c1ccccc1)N1CCN(S(=O)(=O)c2cccc3cnccc23)CC1,SRMV2.6,-,resazurin,-,MIC90,Inosine monophosphate dehydrogenase-resistant,>100 µM
CCc1ccc(-c2cc(CN3CCOCC3)c(C)n2-c2ccc(OC)cc2)cc1,H37Rv,-,-,-,MIC90,-,54.66 µM
COc1cc(OC)c2cc(C(=O)c3cccc4ccccc34)c(=O)oc2c1,H37Rv,-,BACTEC,-,MIC bound,-,>12.5 µg/mL
O=C(NN1CCN(c2cc3c(cc2F)c(=O)c(C(=O)O)cn3C2CC2)CC1)c1cccc2c1B(O)OC2,H37Rv,-,fluorescence,-,MIC90,-,>50 µM
CCCCN(CCCC)P1(=O)OP(=O)(N(CCCC)CCCC)OP(=O)(N(CCCC)CCCC)O1,H37Rv,-,BACTEC,-,MIC,-,≥128 µg/mL
CCc1ccc(-c2cc(CN3CCOCC3)c(C)n2-c2ccc(F)cc2)cc1,H37Rv DR5,-,-,-,MIC,G253E D46G,0.66 µM
O=C(CN1C(=O)CC(NC(=O)OCc2ccccc2)C1=O)NCC(=O)Oc1ccc([N+](=O)[O-])cc1,H37Rv,-,BACTEC,-,MIC bound,-,>12.8 µg/mL
O=C(O)c1cnc(Cl)cn1,BDDIS 20,-,-,-,MIC,-,256 µg/mL
Cc1cc(=O)c2c([nH]1)c1c(c3[nH]c(C)cc(=O)c32)Oc2ccccc2O1,H37Rv,-,BACTEC,-,MIC,-,0.8 µg/mL
N/C(=N\N=C\c1ccccc1Br)c1ccncc1,1342,-,-,-,MIC,-,16 µg/mL
O=C(OCCCl)SC(=S)NCCNC(=S)SC(=O)OCCCl,H37Rv,-,resazurin,-,MIC bound,-,>6.25 µg/mL
CCOC(=O)Nc1nc(NC(=O)OCC)c([N+](=O)[O-])c(Cl)c1[N+](=O)[O-],H37Rv,-,-,-,EC50,-,>12.5 µg/mL
CCCCNC(=S)S,TAC-R,-,-,-,MIC,-,>12.5 µg/mL
CCOC(=O)Nc1cc(N)c([N+](=O)[O-])c(N)n1,H37Rv,-,-,-,EC50,-,>12.5 µg/mL
CC1=C(CCC(C)CO)O[C@H]2C[C@H]3[C@@H]4CC[C@H]5C[C@@H](O)CC[C@]5(C)[C@H]4CC(=O)[C@]3(C)[C@@H]12,H37Rv,-,BACTEC,-,MIC bound,-,>12.5 µg/mL
COc1ccc(-c2nn(-c3ccccc3)cc2C2C3=C(NC(C)(c4cc(O)c(I)cc4Cl)NC3=O)Oc3c2c(C)nn3-c2ccccc2)cc1,MTCC 300,-,agar diffusion / agar,0.5 mg/mL,zone,-,2.5 mm
COc1ccc2oc([N+](=O)[O-])c(C)c2c1[N+](=O)[O-],H37Rv,-,resazurin,-,MIC bound,-,>6.25 µg/mL
O=C(CSc1nc(-c2ccccc2)c(-c2ccccc2)[nH]1)N=Nc1c(O)[nH]c2ccc(Br)cc12,H37Rv,-,-,12 µg/mL,inhibition,-,18%
Cc1nnc(N/N=C/c2ccc([N+](=O)[O-])o2)[nH]c1=O,H37Rv,-,BACTEC,-,MIC bound,-,>12.5 µg/mL
Nc1ccccc1C(=O)Nc1cccc(F)c1,My 331/88,-,-,-,MIC,-,500 µM
CC(C)C1C(=O)C(C(=O)NCNC(C(=O)O)[C@H](C)O)=C(O)C2(O)C(=O)C3=C(O)c4c(O)cccc4[C@@](C)(O)[C@H]3C[C@@H]12,H37Rv,-,BACTEC,-,MIC bound,-,>12.5 µg/mL
COc1ccccc1/C=N/N=C(\N)c1ccncc1,1481,-,-,-,MIC,-,32 µg/mL

The last 7 rows once more:

COc1ccc(-c2nn(-c3ccccc3)cc2C2C3=C(NC(C)(c4cc(O)c(I)cc4Cl)NC3=O)Oc3c2c(C)nn3-c2ccccc2)cc1 ; strain: MTCC 300 ; method: agar diffusion / agar ; tested at: 0.5 mg/mL ; read-out: zone ; value: 2.5 mm
COc1ccc2oc([N+](=O)[O-])c(C)c2c1[N+](=O)[O-] ; strain: H37Rv ; method: resazurin ; read-out: MIC bound ; value: >6.25 µg/mL
O=C(CSc1nc(-c2ccccc2)c(-c2ccccc2)[nH]1)N=Nc1c(O)[nH]c2ccc(Br)cc12 ; strain: H37Rv ; tested at: 12 µg/mL ; read-out: inhibition ; value: 18%
Cc1nnc(N/N=C/c2ccc([N+](=O)[O-])o2)[nH]c1=O ; strain: H37Rv ; method: BACTEC ; read-out: MIC bound ; value: >12.5 µg/mL
Nc1ccccc1C(=O)Nc1cccc(F)c1 ; strain: My 331/88 ; read-out: MIC ; value: 500 µM
CC(C)C1C(=O)C(C(=O)NCNC(C(=O)O)[C@H](C)O)=C(O)C2(O)C(=O)C3=C(O)c4c(O)cccc4[C@@](C)(O)[C@H]3C[C@@H]12 ; strain: H37Rv ; method: BACTEC ; read-out: MIC bound ; value: >12.5 µg/mL
COc1ccccc1/C=N/N=C(\N)c1ccncc1 ; strain: 1481 ; read-out: MIC ; value: 32 µg/mL